From paper PMC3621830
The exact form of at least one protein or probe is not confirmed.

Target: CovR, acetyl phosphate-treated (phospho-CovR) (UniProt Q8DY68)
Test: EMSA
Conditions: shift at lower concentration than unphosphorylated CovR, probe 3.3 nM, EMSA: 3.3 nM biotin-labelled probe, 20 min at room temperature, native 6% polyacrylamide gel, chemiluminescence, salt and pH not stated, recombinant protein, residues 1-229, protein details: His tag (pET21b+ NdeI/XhoI, C-terminal implied), label: biotin (labelled probe), unlabelled as competitor, probe letters rebuilt from the primers and the genome

ATAATAGATTATTTTAGATAGAAACAACCCAAACCCTTAGATTTTACTAAGGGTTTTTTGTGTGGAAAATAACATATATATCCGATTAAATTATAAAAAAATAATCTTTTGATTATTTTTACTAGATTGTTGAGCAAAAAAACATTAAAAAAAAGATGTTTATTTTAATAAAATGTAAATAAATTAAAGAAAAGTGTTGAAATAAAAAACTCCAAGTTATATAATTAGTTAAGGAACTCAAATTAAATTAAAATAAACGTGGTCCTATCCTAATAAATTAGGATTTTCAACTAACTATATAAAGGAGCGAATATG (double strand) [PbibA (bibA promoter fragment)]
binding result: binds
